Consider 1 molecule from ChEMBL document CHEMBL1154744, “HIV-1 protease inhibitors with a transition-state mimic comprising a tertiary alcohol: improved antiviral activity in cells” (J Med Chem, 2010).

Chains of the proteins cited; added tags and fusions are not shown.
UniProt Q72874, entry or part of it I84V/L63P/V82T: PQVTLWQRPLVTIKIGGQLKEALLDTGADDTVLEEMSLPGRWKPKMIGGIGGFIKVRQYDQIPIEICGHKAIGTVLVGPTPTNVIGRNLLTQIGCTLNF

For the assay, the target named is Human immunodeficiency virus type 1 protease (Human immunodeficiency virus 1, UniProt Q72874, I84V/L63P/V82T). Kind of assay: Inhibition of HIV1 protease L63P, V82T, I84V mutant.

Usually Ki stands for a measure of affinity in units of concentration, obtained from inhibition or displacement. A lower Ki goes with tighter binding.

Molecule `COC(=O)N[C@H](C(=O)NN(CC[C@@](O)(Cc1ccccc1)C(=O)N[C@H]1c2ccccc2C[C@H]1O)Cc1ccc(-c2ccccn2)cc1)C(C)(C)C` came in with a Ki of 16 nM.
